Measured values from several laboratories, pooled; numbers as filed in NIAID ChemDB.

Common to all: tests in culture; agent: Cryptococcus neoformans; measure: MIC

Rows are shuffled and stem from different studies.

{"compound": "CC1(C)CC[C@]2(C)CC=C3[C@]4(C)CCC5C(C)(C)[C@@H](O)CC[C@]5(C)C4CC[C@@]3(C)C2C1", "method": "absorbance", "result": ">250 µg/mL"}
{"compound": "Oc1ccc(O)c(C=Nc2ccccc2O)c1", "method": "broth dilution", "strain": "ATCC 24067", "result": "8 µg/mL"}
{"compound": "CCC(C)n1ncn(-c2ccc(N3CCN(c4ccc(OC[C@H]5CO[C@](Cn6cncn6)(c6ccc(Cl)cc6Cl)O5)cc4)CC3)cc2)c1=O", "method": "broth dilution", "strain": "Clinical isolate (IM 983036)", "result": "<0.015 µg/mL"}
{"compound": "C[C@@H](c1ncncc1F)[C@](O)(Cn1cncn1)c1ccc(F)cc1F", "method": "broth dilution", "strain": "B 29739", "result": "0.008 µg/mL"}
{"compound": "C[C@@H]1CC(=O)N(CCc2ccccc2)C1=O", "method": "broth dilution / turbidity", "strain": "ATCC 32264", "result": "62.5 µg/mL"}
{"compound": "C[C@@H](c1ncncc1F)[C@](O)(Cn1cncn1)c1ccc(F)cc1F", "method": "broth dilution", "strain": "Clinical isolate (IM 000319)", "result": "<0.015 µg/mL"}
{"compound": "Oc1ccccc1C=Nc1ccccc1O", "method": "broth dilution", "strain": "LMM 820", "result": "4 µg/mL"}
{"compound": "C[C@@H]1CC(=O)N(c2ccc([N+](=O)[O-])cc2)C1=O", "method": "broth dilution / turbidity", "strain": "ATCC 32264", "result": "62.5 µg/mL"}
{"compound": "Oc1ccccc1N=Cc1ccccc1", "method": "broth dilution", "strain": "ATCC 62066", "result": "2 µg/mL"}
{"compound": "C[C@@H]1C(=O)N(c2ccccc2)C(=O)[C@@H]1C", "method": "broth dilution / turbidity", "strain": "ATCC 32264", "result": "62.5 µg/mL"}
{"compound": "Oc1ccccc1N=Cc1ccc(F)cc1", "method": "broth dilution", "strain": "28JF", "result": "11.3 µg/mL"}
{"compound": "C[C@@H]1CC(=O)N(c2ccc(F)cc2F)C1=O", "method": "broth dilution / turbidity", "strain": "ATCC 32264", "result": "62.5 µg/mL"}
{"compound": "Oc1ccccc1N=Cc1ccc2c(c1)OCO2", "method": "broth dilution", "strain": "ATCC 62066", "result": "2.8 µg/mL"}
{"compound": "CC1(C)C(O)CC[C@@]2(C)C1CC[C@]1(C)C2[C@H](O)C=C2C3C[C@@](C)(C(=O)O)CC[C@]3(C)CC[C@]21C", "method": "absorbance", "result": "47 µg/mL"}
{"compound": "Cc1ccc(N2C(=O)C[C@@H](C)C2=O)cc1", "method": "broth dilution / turbidity", "strain": "ATCC 32264", "result": "62.5 µg/mL"}

2 of the rows above, restated:

| compound | method | strain | result |
|---|---|---|---|
| Oc1ccc(O)c(C=Nc2ccccc2O)c1 | broth dilution | ATCC 24067 | 8 µg/mL |
| Oc1ccccc1N=Cc1ccc(F)cc1 | broth dilution | 28JF | 11.3 µg/mL |